Results published in the supplement of paper PMC9931576.
Human monoclonal antibodies against the spike receptor-binding domain (heavy:light variable regions). IC50 against pseudoviruses bearing the spike of naturally observed variants; lower = stronger; >10 µg/ml means not reached at the top dose. No active / inactive call. The stated detection limit is 0.0005 µg/ml; values near or below 0.001 µg/ml lie at the floor of the assay.

B1: DH1046 (protein)
chain 1: EVQLVESGGGMVQPGGSLRLSCAASGFTFNNYAMNWVRQAPGKGLEWVSAISGSGIRTYYAESVKGRVTISRDNSKSTLYLQMNSLRAEDTAVYYCAKDLFYDFWSGFDFGPGESFGMDVWGQGTTVTVSS
chain 2: DIQMTQSPSTLSASVGDRVNITCRVSQRITSWLAWYQQKPGKAPKVLISKTSSLEGGVPSRFSGSGSGTEFTLTISSLQPDDFATYYCQQYSEFSYTFGQGTKLEIK
B2: BD57-0406 (protein)
chain 1: EVQLVQSGAEVKKPGESLKISCKASGYTFTNYWIGWVRQMPGKGLEWMGIIYPDDSDTRYSPSFQGQVTISADKSINTAYLQWGSLKASDTATYFCARHALPYCGGECYHEWFDPWGQGTLVTVSS
chain 2: SYELTQPLSVSVALGQTARITCGGNNIGDTNVHWYQQKPGQAPVRVIYRNSNRPSGIPERFSGSNSGNTATLTISRAQAGDEADYYCQVRDSNTGPVFGGGTKLTVL
B3: BD57-0408 (protein)
chain 1: EVQLVESGGGLVQPGRSLRLSCAVSGFTFDDYAMHWVRQAPGKGLEWVSGVSWNSGTIGYADSVKGRFIIIRDNSKNSLYLHMKSLRVEDTAFYYCAKDVGRGFEGYSDKYGLDVWGQGTTVTVSS
chain 2: QSALTQPASVSGSPGQSITISCTGSSSDVGGYKYVSWYQQHPGKVPKLMIYDVSSRPSGISNRFSGSKAGNTASLTISGLRAEDEADYYCSSYTSSSIVIFGGGTKLTVL
B4: BD57-0397 (protein)
chain 1: EVQLLESGGGLVQPGGSLRLSCAGSGFTFRHYAMTWVRQPPGKGLEWVSSISGSGGDTFYPDSVKGRFTISRDNSKNILYLQMNNLRADDTAVYYCAKDRVASMWANEYWGQGTLVIVSS
chain 2: DIQMTQSPSSLSASVGDRVTITCQASQDISNYLNWYQQRPGKAPKLLIYDASNLETGVPSRFSGSGSGTDFTLTISSLQPEDIATYYCQQYDHLVFTFGPGTKVHLK
B5: BD57-0390 (protein)
chain 1: QVQLVESGGGVVQPGRSLRLSCAASGFTFSNYDMHWVRQAPGKGLEWLAVISKDGSTKYNADSVKGRFTISRDNYQNMVYLQMNSLRAEDTGVFYCARDLDPYSYGYFDYWGQGTLVTVSS
chain 2: EIVMTQSPATLSVSPGERATLSCRASQIVSSNLAWYQQNPGQAPRLLIYGASTRATGIPARFSGSGSGTEFTLTISSLQPEDFAVYYCQQYYYWPSFGPGTKVDIK
B6: BD57-0403 (protein)
chain 1: EVQLVESGGGLVQPGGSLRLSCAASGFTFSNYDMHWVRQVPGKGLDWVSVIGTAGDTYYPDSVKGRFAISRENAKNSLFLQMNNLRAEDTAVYYCARAYYDTSGLYLAFDNWGQGTLVTVSS
chain 2: DIQMTQSPSSLSASIGDRVTITCRASQSVGSYLNWYQQKPGKAPKLLIYAASSLLSGVSSRFSGSGSGTDFTLTISSLQPEDFATYYCQQSYSTLALTFGGGTKVEIK
B7: BD57-0411 (protein)
chain 1: EVQLVESGGGVVQPGGSLRLSCEASGFTFDDYAMHWVRQPPGKGLQWVSLISGDGSSTNYGDSVKGRFTISRDNSKTSLYLQMNNVRTEDTAIYYCAKDFGDPVPAAMRWYYFDYWGQGTLVTVSS
chain 2: QSVLTQPPSASGTPGQRVTISCSGSSSNIGRNYVFWYQHFPGTGPKLLIYRNNQRPSGVPERFSGSKSGTSASLAISGLRSEDEADYYCAAWDDSLSGSWVFGGGTKLTVL
B8: DH1064 (protein)
chain 1: QVQLVESGGGVVQPGRSLRLSCTASGFTFSQYGMHWVRQAPGKGLEWVAGMSYDGNDKNYLDSVKGRFSISRDDSKSTQYLQMNSLRAEDTAVYYCAKKGSPYCGVDCYKGYFDYWGQGILVIVSS
chain 2: DIQMTQSPSSLSASVGDRVTITCQASHDINKYLSWYQHKPGKAPKIMTSDASNLEAGVPSRFSGGGSGTDFTLTINGLQPEDFATYYCQQYDRLPITFGQGTRLDIK
B9: BG10-19 (protein)
chain 1: EVQLVQSGAEVKKPGESLKISCKGSGYSFTSYWIGWVRQMPGKGLEWMGVIYPGDSDTRYSPSFQGQVTISADKSISTAYLQWSSLKASDTAMYYCARTQWGYNYGSHFFYMDVWGKGTTVTVSS
chain 2: QSVLTQPPSASGTPGQRVTISCSGSSSNIGSDHVYWYQQLPGTAPKLFIYRNNQRPSGVPDRFSGSKSGTSASLAISGLRSEDEADYYCAAWDASLSGYVFGTGTKVTVL
B10: BD57-0378 (protein)
chain 1: QVQLVQSGAEVKKPGSSVKVSCKASGGTFTRYAISWVRQAPGQGLEWMGGIIPIFGIANYAQKFQGRVTITADESTSTAYMDLSSLRSEDTAVYYCARDLFYYDRSGQPQVDEYFQDWGQGTLVTVSS
chain 2: QSVLTQPPSVSGAPGQRVTISCTGSSSNIGAGYDVHWYQQLPGTAPKLLIYGNSNRPSGVPDRFSGSTSGTSASLAITGLQAEDEADYYCQSYDSSLSGYVFGIGTKVTVL
B11: BD57-0402 (protein)
chain 1: QVQLVQSGPEVRKPGASVKVSCKPSGYIFTNYYLHWVRQAPGQGLEWMGIINPRGGSPDYAQKFQGRVSMTRDMSTSTVYMELRSLTSDDTAVYYCSRGNRVTVSGVDFWGQGTLVTVSS
chain 2: QTVVTQEPSLTVSPGGTVTLTCASSAGPVTDEFFPNWFQQKPGHAPTTLIYSTTNKHSWTPARFSGSLLGGKAALTLSRVQPEDEADYFCLLYFGGAWVFGGGTKVTVL
B12: DH1073 (protein)
chain 1: QVQLVQSGAEVRKPGASVKVSCKASGYTFTDYYIHWVRQAPGQGLEWMGIINPEAGSTTSAQRFQGRLIMTTDTSASTVYMELNSLTSADTAVYYCARDYFLIPAANTMEVWGQGTTVTVSS
chain 2: EIVLTQSPDTLSLSPGERATLSCRASQSVGTYLAWFQQKPGQPPRLLIYDASNRATGIPARFGGSGSGTDFTLTISSLEPEDFAVYYCQQRSNWPRTWTFGQGTKVEIK

target: SARS-CoV-2 Omicron BA.1 spike pseudovirus; experiment: pseudovirus neutralization IC50; higher = weaker neutralization
Method: (§1)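 Single-round VSV luciferase pseudovirus mixed with antibody dilutions for 1 h and put on Huh-7 cells for about a day; IC50 from the dose curve.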

First: B1
Second: B2
The “pseudovirus neutralization IC50” value of the first is higher: over 10 µg/mL for the first, 0.911 µg/mL for the second.

Compared with B3, B4 is higher in “pseudovirus neutralization IC50” value: 0.161 µg/mL for the first, over 10 µg/mL for the second.

B5 and B6 cannot be ordered by “pseudovirus neutralization IC50” value: over 10 µg/mL for the first, over 10 µg/mL for the second.

First: B7
Second: B8
The “pseudovirus neutralization IC50” value of the first is lower: 0.392 µg/mL for the first, over 10 µg/mL for the second.

First: B9
Second: B10
The “pseudovirus neutralization IC50” value of the first is higher: over 10 µg/mL for the first, 0.125 µg/mL for the second.

First: B11
Second: B12
The “pseudovirus neutralization IC50” value of the first is 16-fold lower: 0.37 µg/mL for the first, 6.01 µg/mL for the second.

target: SARS-CoV-2 Omicron BA.2 spike pseudovirus; experiment: as above
Method: as §1

Going from B1 to B2, the “pseudovirus neutralization IC50” value falls from over 10 µg/mL to 1.47 µg/mL.

First: B3
Second: B4
The “pseudovirus neutralization IC50” value of the first is lower: 0.172 µg/mL for the first, over 10 µg/mL for the second.

B5 and B6 cannot be ordered by “pseudovirus neutralization IC50” value: over 10 µg/mL for the first, over 10 µg/mL for the second.

Going from B7 to B8, the “pseudovirus neutralization IC50” value rises from 0.187 µg/mL to over 10 µg/mL.

B9 and B10 cannot be ordered by “pseudovirus neutralization IC50” value: over 10 µg/mL for the first, over 10 µg/mL for the second.

First: B11
Second: B12
The “pseudovirus neutralization IC50” value of the first is 12-fold lower: 0.348 µg/mL for the first, 4.29 µg/mL for the second.

target: SARS-CoV-2 Omicron BA.2.75 spike pseudovirus; experiment: as above
Method: as §1

Going from B1 to B2, the “pseudovirus neutralization IC50” value falls from over 10 µg/mL to 1.91 µg/mL.

Going from B3 to B4, the “pseudovirus neutralization IC50” value rises from 0.0913 µg/mL to over 10 µg/mL.

B5 and B6 cannot be ordered by “pseudovirus neutralization IC50” value: over 10 µg/mL for the first, over 10 µg/mL for the second.

Going from B7 to B8, the “pseudovirus neutralization IC50” value rises from 0.0552 µg/mL to over 10 µg/mL.

B9 and B10 cannot be ordered by “pseudovirus neutralization IC50” value: over 10 µg/mL for the first, over 10 µg/mL for the second.

Going from B11 to B12, the “pseudovirus neutralization IC50” value rises from 0.0745 µg/mL to 5.34 µg/mL (72-fold).

target: SARS-CoV-2 Omicron BA.5 spike pseudovirus; experiment: as above
Method: as §1

Going from B1 to B2, the “pseudovirus neutralization IC50” value falls from over 10 µg/mL to 3.6 µg/mL.

Compared with B3, B4 is higher in “pseudovirus neutralization IC50” value: 0.191 µg/mL for the first, over 10 µg/mL for the second.

B5 and B6 cannot be ordered by “pseudovirus neutralization IC50” value: over 10 µg/mL for the first, over 10 µg/mL for the second.

B7 and B8 cannot be ordered by “pseudovirus neutralization IC50” value: over 10 µg/mL for the first, over 10 µg/mL for the second.

B9 and B10 cannot be ordered by “pseudovirus neutralization IC50” value: over 10 µg/mL for the first, over 10 µg/mL for the second.

Compared with B11, B12 is 1.7-fold lower in “pseudovirus neutralization IC50” value: 3.12 µg/mL for the first, 1.87 µg/mL for the second.

target: SARS-CoV-2 Omicron BQ.1.1 spike pseudovirus; experiment: as above
Method: as §1

Compared with B1, B2 is lower in “pseudovirus neutralization IC50” value: over 10 µg/mL for the first, 4.89 µg/mL for the second.

B3 and B4 cannot be ordered by “pseudovirus neutralization IC50” value: over 10 µg/mL for the first, over 10 µg/mL for the second.

B5 and B6 cannot be ordered by “pseudovirus neutralization IC50” value: over 10 µg/mL for the first, over 10 µg/mL for the second.

B7 and B8 cannot be ordered by “pseudovirus neutralization IC50” value: over 10 µg/mL for the first, over 10 µg/mL for the second.

B9 and B10 cannot be ordered by “pseudovirus neutralization IC50” value: over 10 µg/mL for the first, over 10 µg/mL for the second.

First: B11
Second: B12
The “pseudovirus neutralization IC50” value of the first is higher: over 10 µg/mL for the first, 2.39 µg/mL for the second.

target: SARS-CoV-2 Omicron XBB spike pseudovirus; experiment: as above
Method: as §1

First: B1
Second: B2
The “pseudovirus neutralization IC50” value of the first is higher: over 10 µg/mL for the first, 4.04 µg/mL for the second.

Compared with B3, B4 is higher in “pseudovirus neutralization IC50” value: 3.42 µg/mL for the first, over 10 µg/mL for the second.

B5 and B6 cannot be ordered by “pseudovirus neutralization IC50” value: over 10 µg/mL for the first, over 10 µg/mL for the second.

B7 and B8 cannot be ordered by “pseudovirus neutralization IC50” value: over 10 µg/mL for the first, over 10 µg/mL for the second.

B9 and B10 cannot be ordered by “pseudovirus neutralization IC50” value: over 10 µg/mL for the first, over 10 µg/mL for the second.

Going from B11 to B12, the “pseudovirus neutralization IC50” value falls from over 10 µg/mL to 3.06 µg/mL.

target: SARS-CoV-2 early D614G spike pseudovirus; experiment: as above
Method: as §1

Compared with B1, B2 is 3.3-fold higher in “pseudovirus neutralization IC50” value: 0.79 µg/mL for the first, 2.6 µg/mL for the second.

Compared with B3, B4 is higher in “pseudovirus neutralization IC50” value: 0.0445 µg/mL for the first, over 10 µg/mL for the second.

B5 and B6 cannot be ordered by “pseudovirus neutralization IC50” value: over 10 µg/mL for the first, over 10 µg/mL for the second.

Going from B7 to B8, the “pseudovirus neutralization IC50” value rises from 0.000601 µg/mL to over 10 µg/mL.

Going from B9 to B10, the “pseudovirus neutralization IC50” value rises from 0.0031 µg/mL to 0.119 µg/mL (38-fold).

Compared with B11, B12 is 300-fold higher in “pseudovirus neutralization IC50” value: 0.00413 µg/mL for the first, 1.25 µg/mL for the second.
